Data from patent US8816122B2 (The Board of Trustees of the Leland Stanford Junior …, priority 2009, dated 2014).

System: U1 promonocytic cells containing two integrated HIV proviruses
Assay: Viral activation of U1 promonocytic cells, HIV p24 ELISA of supernatant
Format: cell-based

CCC/C=C/C=C/C(=O)O[C@H]1/C(=C/C(=O)OC)C[C@H]2C[C@H]([C@@H](C)O)OC(=O)C[C@H](O)C[C@@H]3C[C@H](OC(C)=O)C(C)(C)[C@](O)(C[C@@H]4C/C(=C/C(=O)OC)C[C@H](/C=C/C(C)(C)[C@]1(O)O2)O4)O3 [Bryostatin 1, reference compound]
Concentration at Maximum p24 Level: 1 nM | Minimum Concentration for Viral Expression (measured by p24 levels): 1 nM
